According to publication PMC6358911, “Rationally Designed α-Conotoxin Analogues Maintained Analgesia Activity and Weakened Side Effects” (2019):
Entries after “also recorded” stand apart in the source; their conditions may differ. Certain results were filed several times, with different values. The list is limited to them. The source may hold further records. The records of an entry differ for a reason that is not stated; dose, time, organism, isomer or construct need not be as stated for each record.

System: C. elegans
Experiment: Lethality of C. elegans
Details: L1-larvae, 22 °C, 48 h, three wells; vs M9 buffer control

CC(C)C[C@@H]1NC(=O)[C@H](C(C)C)NC(=O)[C@H](C)NC(=O)[C@@H]2CSSC[C@H](NC(=O)CN)C(=O)N[C@@H](CSSC[C@@H](C(N)=O)NC(=O)[C@H](Cc3ccc(O)cc3)NC1=O)C(=O)N[C@@H](CO)C(=O)N[C@@H]([C@@H](C)O)C(=O)N1CCC[C@H]1C(=O)N1CCC[C@H]1C(=O)N2
lethality, in words: significantly higher than the other groups (P<0.05); also recorded: significantly higher than control group and analogue groups (P<0.05)
